Test results: paper PMC12846677 (Viruses, 2025)

How the values were obtained:
[1] = test system: NL4-3IN-R263K; assay type: cell-based; details: p24
[2] = test system: HIV-1RF/V82F/184V; assay: microbe, parasite or virus in culture; details: Human immunodeficiency virus 1, C8166
[3] = test system: pNL4-3G140S/Q148H
[4] = test system: HIV-1RF/V82F/184V; details: C8166, p24
[5] = test system: pNL4-3G140S/Q148H; assay: microbe, parasite or virus in culture; details: Human immunodeficiency virus 1, C8166

In the case of `O=C1Nc2ccc(Cl)cc2[C@@](C#CC2CC2)(C(F)(F)F)O1` [EFV, Efavirenz], the “FC (Fold Change) EC50 (NL4-3IN-R263K)/EC50 (NL4-3)” value [1] is reported as 1.07.

With `C[C@H]1N2C(=O)c3c(O)c(=O)c(C(=O)NCc4ccc(F)cc4F)cn3C[C@@H]2OCC12CC2` [ACC017] the EC50 [2] was 1.45 ± 0.48 nM, the “Fold decrease in susceptibility of pNL4-3G140S/Q148H compared to HIV-1IIIB” value [3] was 13.88 fold and the “SI (CC50/EC50)” value ([3]; pNL4-3G140S/Q148H, C8166, p24) was 2487.18. The “SI (CC50/EC50)” value [4] was 14,048.28 and the EC50 [5] was 8.19 ± 4.88 nM.

In the case of `C[C@@H]1CCO[C@H]2Cn3cc(C(=O)NCc4ccc(F)cc4F)c(=O)c(O)c3C(=O)N12` [DTG, Dolutegravir], the EC50 [2] is reported as 1.69 ± 1.22 nM and the EC50 [5] is reported as 13.5 ± 8.41 nM.

For `Nc1ccn([C@@H]2CS[C@H](CO)O2)c(=O)n1` [3TC, Lamivudine], the “FC (Fold Change) EC50 (NL4-3IN-R263K)/EC50 (NL4-3)” value [1] was 0.91.
